How the values were obtained:
[1] = system: peripheral blood lymphocytes of healthy candidates; test: Spontaneous cytokine secretion, cytometric bead array, healthy candidates; details: healthy candidates (n=3), 200 μg/10^6 cells, 2 days (FIG. 8)
[2] = system: peripheral blood lymphocytes (PBMC); test: Intracellular IFNγ and IL-4 production after SEB stimulation (flow cytometry); assay type: cell-based, human; details: SEB stimulated
[3] = system: peripheral blood lymphocytes (PBMC)
[4] = system: peripheral blood lymphocytes from patients with severe psoriasis vulgaris; test: Spontaneous cytokine secretion, cytometric bead array, patients with psoriasis vulgaris; details: patients with psoriasis vulgaris (n=3), 200 μg/10^6 cells, 2 days (FIG. 10)

| Sequence | Spontaneous production of TNFα [1] | Synthesis of IL-4 [1] | Synthesis of IL-5 [1] | Synthesis of IL-10 [1] | Ratio between IFNγ and IL-4 (IFNγ+ Th1 cells to IL-4+ Th2 cells) ([2]; healthy candidates (FIG. 7C)) | Intracellular IFNγ production ([2]; lymphocytes of healthy candidates, different peptide concentrations (FIG. 7A)) | Intracellular IL-4 production ([2]; lymphocytes of healthy candidates, different peptide concentrations (FIG. 7B)) | Effect on SEB-induced proliferation ([3]; co-stimulation with SEB+peptide (FIG. 6B)) | Inhibition of the SEB-induced lymphocyte proliferation ([3]; dose-effect curve 10-200 μg peptide, high concentrations (FIG. 6B)) | Effect on proliferation of lymphocytes ([3]; peptides alone, different concentrations, 2 days, healthy donors (FIG. 6A)) | IL-5 synthesis [4] | IL-10 synthesis [4] | Spontaneous production of IFNγ [1] | Spontaneous production of IL-2 [1] |
| --- | --- | --- | --- | --- | --- | --- | --- | --- | --- | --- | --- | --- | --- | --- |
| QEEDFLTLH | inhibits TNFα more strongly | induces the synthesis of Th2 cytokines (IL-4, IL-5, IL-10) | induces the synthesis of Th2 cytokines (IL-4, IL-5, IL-10) | induces the synthesis of Th2 cytokines (IL-4, IL-5, IL-10) |  |  |  |  |  |  |  |  |  |  |
| QELDYLTRH |  | completely inhibits also the synthesis of IL-4 and IL-5 | completely inhibits also the synthesis of IL-4 and IL-5 |  | modified by the peptides as a function of the dosage in favour of the IL-4 producing Th2 lymphocytes | suppresses the production of IFNγ, a cytokine which mediates a number of immunological functions, more strongly than P2 as a function of the dosage | is stimulated as a function of the dosage | modified substantially neither by the peptides alone (FIG. 6A) nor the co-stimulation with SEB+peptide P1 | occurred only in high concentrations | did not bring to light any significant effects | substantial stimulation of the IL-10 and IL-5 synthesis | substantial stimulation of the IL-10 and IL-5 synthesis | inhibits above all the spontaneous production of the Th1 cytokines IL-2 and IFNγ | inhibits above all the spontaneous production of the Th1 cytokines IL-2 and IFNγ |

From US20060127411A1 (priority 2002, published 2006)
